Anti-infective test results gathered from many reports (values: NIAID ChemDB through PubChem).

Shared fields: cytotoxicity tests; cells: MT-4; endpoint: CC50

Lines come from different laboratories, so protocols vary. Blank or dashed fields: not listed here. CCn: concentration that lowers growth or viability of the cells by n%.

compound,read by,result
CC(C)c1nc(CN(C)C(=O)N[C@H](C(=O)N[C@@H](Cc2ccccc2)C[C@H](O)[C@H](Cc2ccccc2)NC(=O)OCc2cncs2)C(C)C)cs1,MTT,>1.39 µM
O=C(CSc1sc(Cl)nc1-c1ccc(Br)cc1Br)Nc1ccccc1Cl,MTT,17.45 µM
O=c1[nH]cnc2c1ncn2[C@H]1CC[C@@H](CO)O1,MTT,>211 µM
CSc1nc(N)c(C)c(C(O)c2ccccc2)n1,,>25 µM
Cc1cc([N+](=O)[O-])ccc1NC(=O)CSc1sc(N)nc1-c1ccc(Br)cc1Br,MTT,30.81 µM
C[C@H]1[C@@H]2O[C@]3(NC(=O)OC(C)(C)C)[C@@H](C)[C@H]1O[C@H]2[C@@H]3O,MTT,>88 µM
Cc1cn([C@H]2C[C@H](N=[N+]=[N-])[C@@H](COP(=O)(OCCSC(=O)C(C)(C)C)OCCSC(=O)C(C)(C)C)O2)c(=O)[nH]c1=O,,>10 µM
CO/N=C1\C(=O)N(CCOCCN2C(=O)/C(=N/OC)c3ccccc32)c2ccccc21,MTT,>11.97 µM
C#Cc1ccc(Nc2nccc(Oc3c(C)cc(-c4cn(Cc5cccc(C(=O)OC)c5)nn4)cc3C)n2)cc1,MTT,4.78 µM
O=C1CSC(c2c(F)cccc2Cl)N1c1ncccn1,,136 µM
CC(=O)SCCOP(=O)(OCCSC(C)=O)OC[C@@H]1CC[C@H](n2cnc3c(N)ncnc32)O1,,16 µM
CC1C(=O)Nc2ccc(Cl)cc2S(=O)(=O)N1Cc1cc(Cl)cc(Cl)c1,MTT,>200 µM
Cc1cc(Cl)nc(N2C(=O)CSC2c2c(Cl)cccc2Cl)n1,,81.7 µM
CCC(CCOCCOC)c1cc(O)c(C(c2cccc(NS(=O)(=O)c3cn(C)cn3)c2)C2CC2)c(=O)o1,,>30 µM
CC(C)[C@H](NC(=O)N(C)Cc1ccccn1)C(=O)N[C@@H](Cc1ccccc1)[C@H](O)[C@H](O)[C@H](Cc1ccccc1)NC(=O)[C@@H](NC(=O)N(C)Cc1ccccn1)C(C)C,,150 µM
Cc1cn([C@H]2C[C@H](N=[N+]=[N-])[C@@H](CO)O2)c(=O)[nH]c1=O,,2.2 µg/mL
CSc1nc(N)c(C)c(/C(=N/O)c2ccccc2)n1,,>25 µM
COCCOCCCc1cc(O)c(C(c2cccc(NS(=O)(=O)c3cn(C)cn3)c2)C2CC2)c(=O)o1,,>30 µM
Nc1nc(-c2ccc(Br)cc2Br)c(SCC(=O)Nc2ccccc2Br)s1,MTT,33.18 µM
C#Cc1ccc(Nc2nccc(Oc3c(C)cc(-c4cn(Cc5ccc(C#N)cc5)nn4)cc3C)n2)cc1,MTT,7.18 µM
Cc1ccccc1CN1C(C)C(=S)Nc2ccc(Cl)cc2S1(=O)=O,MTT,≥200 µM
C#Cc1ccc(Nc2nccc(Oc3c(C)cc(-c4cn(Cc5ccc(C(N)=O)cc5)nn4)cc3C)n2)cc1,MTT,13.84 µM
CC1C(=O)Nc2ccc(Cl)cc2S(=O)(=O)N1Cc1c(F)cccc1F,MTT,>200 µM
CC(=O)O[C@H]1[C@H](C)[C@@H]2O[C@](NC(=O)OC(C)(C)C)([C@H]1C)[C@H]1O[C@@H]21,MTT,>76 µM
CC(=O)O[C@@H]1[C@@H](C)[C@@]2(O)[C@@H](C=C(CO)C[C@]3(O)C(=O)C(C)=C[C@@H]23)[C@@H]2C(C)(C)[C@]12OC(C)=O,,>1000 µg/mL
CSc1nc(N)c(C)c(C(=O)CCc2ccccc2)n1,,>25 µM
Cc1cn([C@H]2C[C@H](N=[N+]=[N-])[C@@H](CO)O2)c(=O)[nH]c1=O,MTT,>1 µM
CC(=O)SCCOP(=O)(OCCSC(C)=O)OC[C@@H]1CC[C@H](n2cnc3c(=O)[nH]cnc32)O1,,>100 µM
CCC(Cc1ccccc1)c1cc(O)c(C(c2cccc(NS(=O)(=O)c3ccc(C#N)cc3)c2)C2CC2)c(=O)o1,,>30 µM
Nc1nc(-c2ccc(Br)cc2Br)c(SCC(=O)Nc2ccccc2Cl)s1,MTT,23.67 µM
Fc1cccc(F)c1C1SCc2nc3ccccc3n21,,19.2 µM
C#Cc1ccc(Nc2nccc(Oc3c(C)cc(-c4cn(Cc5ccccc5)nn4)cc3C)n2)cc1,MTT,8.55 µM
Cc1cc(=O)[nH]c(N2C(=O)CSC2c2c(Cl)cccc2Cl)n1,,179 µM
COc1ccc(CSc2nc(Cc3c(Cl)cccc3Cl)c(C)c(=O)[nH]2)cc1,,>25 µM
CC(C)=CCn1c(=O)n2c3c(cc(Cl)cc31)S(=O)(=O)NC(C)C2,MTT,91 µM
CNC(=O)c1cnnn1[C@@H]1O[C@H](CO[Si](C)(C)C(C)(C)C)C2(OS(=O)(=O)C=C2N)[C@H]1O[Si](C)(C)C(C)(C)C,,28 µM
CCO/N=C1\C(=O)N(CCOCCN2C(=O)/C(=N/OCC)c3ccccc32)c2ccccc21,MTT,255 µM
O=c1oc(C(CC2CC2)CC2CC2)cc(O)c1C(c1cccc(NS(=O)(=O)c2ccccc2)c1)C1CC1,,>30 µM
O=C(CSc1sc(Cl)nc1-c1ccc(Br)cc1Br)Nc1ccccc1F,MTT,33.18 µM
C#Cc1ccc(Nc2nccc(Oc3c(C)cc(-c4cn(CCCC(=O)OC)nn4)cc3C)n2)cc1,MTT,20.15 µM
C[C@H]1[C@H](O)[C@H](C)[C@@]2(NC(=O)OC(C)(C)C)O[C@@H]1[C@H]1O[C@H]12,MTT,>440 µM
CC(C)=CCN1Cc2cc(Cl)cc3[nH]c(=S)n(c23)C[C@@H]1C,MTT,30 µM
Cc1c(N)nc(S(C)(=O)=O)nc1C(=O)c1ccccc1,,>25 µM
N#Cc1cc([C@H]2C[C@H](N=[N+]=[N-])[C@@H](CO)O2)cc(=O)[nH]1,MTT,>478 µM
CC(=O)O[C@H]1[C@H](C)[C@@H]2O[C@@](NC(=O)OC(C)(C)C)([C@@H]3O[C@H]23)[C@H]1C,MTT,>76 µM
CCCCCCCCCC(=O)O[C@@]12[C@H](OC(C)=O)[C@@H](C)[C@@]3(O)[C@@H](C=C(CO)C[C@]4(O)C(=O)C(C)=C[C@@H]34)[C@@H]1C2(C)C,,>62.5 µg/mL
Cc1ccccc1NC(=O)CSc1sc(Cl)nc1-c1ccc(Br)cc1Br,MTT,26.94 µM
CCOC(=O)C(C)N(CC)S(=O)(=O)c1cc(Cl)ccc1[N+](=O)[O-],MTT,105 µM
Cc1cn([C@H]2C[C@H](N=[N+]=[N-])[C@@H](CO)O2)c(=O)nc1N(C)N,,8.56 µM
Nc1ncnc2c1ncn2[C@H]1CC[C@@H](CO)O1,,76 µM
Cc1cn([C@H]2C[C@H](N=[N+]=[N-])[C@@H](CSCCC(=O)O)O2)c(=O)[nH]c1=O,,125 µg/mL
C#Cc1ccc(Nc2nccc(Oc3c(C)cc(-c4cn(Cc5ccc(O)cc5)nn4)cc3C)n2)cc1,MTT,2.1 µM
Nc1nc(-c2ccc(Br)cc2Br)c(SCC(=O)Nc2ccccc2N)s1,MTT,33.04 µM
Cc1ccnc2c1NC(=O)c1cccnc1N2C1CC1,MTT,>15.02 µM
CCCCCCCCCCCCCCCCC(=O)O[C@@H]1[C@@H](C)[C@@]2(O)[C@@H](C=C(COC(C)=O)C[C@@]3(O)C(=O)C(C)=C[C@@H]23)[C@@H]2C(C)(C)[C@]12OC(C)=O,,>1000 µg/mL
O=Nc1c(O)n(CCOCCn2c(O)c(N=O)c3ccccc32)c2ccccc12,MTT,238 µM
CC(=O)OCC1=C[C@H]2[C@@H]3C(C)(C)[C@]3(OC(C)=O)[C@H](OC(C)=O)[C@@H](C)[C@]2(O)[C@@H]2C=C(C)C(=O)[C@@]2(O)C1,,>125 µg/mL
CCN1C(C)C(=O)Nc2c([N+](=O)[O-])cc(Cl)cc2S1(=O)=O,MTT,105 µM
CCCCCCCCCCCCCC(=O)O[C@@]12[C@H](OC(C)=O)[C@@H](C)[C@@]3(O)[C@@H](C=C(CO)C[C@]4(O)C(=O)C(C)=C[C@@H]34)[C@@H]1C2(C)C,,>125 µg/mL
C=C1[C@H](CO)[C@@H](O)C[C@@H]1n1cnc2c(=O)[nH]c(N)nc21,MTT,>4.59 µM